# T1: human Kv1.2 potassium ion channel (human), P16389
# T1 chain: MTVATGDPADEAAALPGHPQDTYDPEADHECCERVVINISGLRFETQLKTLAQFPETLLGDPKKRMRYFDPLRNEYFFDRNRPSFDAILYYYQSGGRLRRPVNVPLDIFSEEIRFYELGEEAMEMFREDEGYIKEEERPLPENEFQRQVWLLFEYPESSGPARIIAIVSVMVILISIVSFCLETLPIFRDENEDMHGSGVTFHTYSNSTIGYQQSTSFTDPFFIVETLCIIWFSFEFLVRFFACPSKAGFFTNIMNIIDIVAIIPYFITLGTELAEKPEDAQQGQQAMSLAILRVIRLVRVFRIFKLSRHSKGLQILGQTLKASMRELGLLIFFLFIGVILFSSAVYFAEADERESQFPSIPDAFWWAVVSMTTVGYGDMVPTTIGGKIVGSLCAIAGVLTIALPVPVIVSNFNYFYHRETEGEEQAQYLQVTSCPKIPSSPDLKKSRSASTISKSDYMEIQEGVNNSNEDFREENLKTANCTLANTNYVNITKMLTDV
# T2: human Kv1.1 potassium ion channel (human), Q09470
# T2 chain: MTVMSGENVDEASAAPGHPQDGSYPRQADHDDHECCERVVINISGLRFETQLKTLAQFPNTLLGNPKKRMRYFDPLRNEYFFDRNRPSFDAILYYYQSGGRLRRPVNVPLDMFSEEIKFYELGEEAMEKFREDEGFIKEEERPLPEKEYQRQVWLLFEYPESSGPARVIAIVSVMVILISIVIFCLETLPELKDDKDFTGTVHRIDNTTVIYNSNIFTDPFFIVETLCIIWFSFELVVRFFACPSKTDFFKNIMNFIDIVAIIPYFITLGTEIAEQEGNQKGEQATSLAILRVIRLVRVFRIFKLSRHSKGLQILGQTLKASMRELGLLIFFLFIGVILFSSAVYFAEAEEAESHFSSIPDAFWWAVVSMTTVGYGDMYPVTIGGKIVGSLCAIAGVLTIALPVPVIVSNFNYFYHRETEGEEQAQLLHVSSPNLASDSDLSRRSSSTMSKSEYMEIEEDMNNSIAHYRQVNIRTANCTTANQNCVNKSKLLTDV
# T3: human Kv1.6 potassium ion channel (human), P17658
# T3 chain: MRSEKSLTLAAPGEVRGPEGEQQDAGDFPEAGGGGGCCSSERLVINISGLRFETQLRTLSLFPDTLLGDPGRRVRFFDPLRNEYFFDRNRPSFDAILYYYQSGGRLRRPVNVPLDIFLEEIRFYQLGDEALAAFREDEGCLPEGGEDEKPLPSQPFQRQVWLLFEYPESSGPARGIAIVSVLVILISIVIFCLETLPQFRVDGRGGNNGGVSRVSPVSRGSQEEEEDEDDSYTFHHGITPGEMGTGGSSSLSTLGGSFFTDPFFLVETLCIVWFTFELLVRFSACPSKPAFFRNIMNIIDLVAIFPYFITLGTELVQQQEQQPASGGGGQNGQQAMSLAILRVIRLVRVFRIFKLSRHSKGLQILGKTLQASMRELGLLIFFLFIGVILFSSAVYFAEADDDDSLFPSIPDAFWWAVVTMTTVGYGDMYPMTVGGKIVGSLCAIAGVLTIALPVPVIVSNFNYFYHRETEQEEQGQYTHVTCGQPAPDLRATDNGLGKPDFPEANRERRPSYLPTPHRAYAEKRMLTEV
# Key:
# Assay in all cases: cell-based or functional assay
# [1] = biological target: T1, human Kv1.2 potassium ion channel …
# [2] = biological target: T2, human Kv1.1 potassium ion channel …
# [3] = biological target: T3, human Kv1.6 potassium ion channel …
# [4] = biological target: human Kv1.3 (potassium voltage-gated channel subfamily A member 3) (human), P22001
Binder,Potency IC50 (nM) Kv1.2 [1] [nM],Selectivity Kv1.2/Kv1.3 [1],Selectivity Kv1.1/Kv1.3 [2],Selectivity Kv1.6/Kv1.3 [3],Potency IC50 (nM) Kv1.3 [4] [nM],anti-CD3 PBMC/IL-2 IC50 [4] [nM],Potency IC50 (nM) Kv1.1 [2] [nM]
NMDMRCSASVECKQKCLKAIGSIFGKCMNKKCKCYPRRRTA (modifications not checked) [Cpd No. 28],28,191,4280,1470,0.15,0.06,
QMDMRCSASVECKQKCLKAIGRGFGKCMNKKCKCYPR (modifications not checked) [Cpd No. 16],97,65,> 2000,1200,1.5,,> 3000
NMDMRCSASVECKVKCLKAIGSIFGKCMNKKCKCYPR (modifications not checked) [Cpd No. 22],66,159,,2180,0.42,0.4,
